Anti-infective test results gathered from many reports (values: NIAID ChemDB through PubChem).

Common to all: whole-cell or culture tests; species: Mycobacterium avium intracellulare

Lines come from different laboratories, so protocols vary. An empty or dashed field is not shown. MIC50, MIC90 and the like: level of inhibition, or share of isolates inhibited. Percent inhibition refers to the dose given; in toxicity tests it is the harm to the cells.

compound | strain or isolate | read-out | tested at | value
CNC1CCCN(c2c(F)cc3c(=O)c(C(=O)O)cn(C4CC4)c3c2OC)C1 | 16 isolates | MIC90 | - | 50 µg/mL
CO[C@H]1/C=C/O[C@@]2(C)Oc3c(C)c(O)c4c(O)c(c(/C=N/N5CCN(C)CC5)c(O)c4c3C2=O)NC(=O)/C(C)=C\C=C\[C@H](C)[C@H](O)[C@@H](C)[C@@H](O)[C@@H](C)[C@H](OC(C)=O)[C@@H]1C | CIPT 140310030 | MIC | - | 0.1 µg/mL
Cc1c(F)c(N2CCNC(C)C2)cc2c1c(=O)c(C(=O)O)cn2C1CC1 | - | MIC | - | 5.4 µg/mL
CO[C@H]1/C=C/O[C@@]2(C)Oc3c(C)c(O)c4c(O)c(c(/C=N/N5CCN(C)CC5)c(O)c4c3C2=O)NC(=O)/C(C)=C\C=C\[C@H](C)[C@H](O)[C@@H](C)[C@@H](O)[C@@H](C)[C@H](OC(C)=O)[C@@H]1C | Serovar 8 | inhibition | 0.63 µg/mL | 38%
CCn1cc(C(=O)O)c(=O)c2cc(F)c(N3CCNC(C)C3)c(F)c21 | - | MIC | - | 4.5 µg/mL
CCn1cc(C(=O)O)c(=O)c2cc(F)c(N3CCNCC3)cc21 | 16 isolates | MIC50 | - | >100 µg/mL
CC1COc2c(N3CCN(C)CC3)c(F)cc3c(=O)c(C(=O)O)cn1c23 | 95 isolates | MIC50 | - | 2 µg/mL
CC1COc2c(N3CCN(C)CC3)c(F)cc3c(=O)c(C(=O)O)cn1c23 | - | MIC | - | 2.5 µg/mL
CO[C@H]1/C=C/O[C@@]2(C)Oc3c(C)c(O)c4c(O)c(c5c(c4c3C2=O)NC2(CCN(CC(C)C)CC2)N=5)=NC(=O)/C(C)=C\C=C\[C@H](C)[C@H](O)[C@@H](C)[C@@H](O)[C@@H](C)[C@H](O)[C@@H]1C | CDC2 | MIC | - | 0.075 µg/mL
CC[C@@H](C)N1CCN(c2cc(=O)c3nc4c(oc3c2)c2c(=O)c3c(O)c(C)c5c(c34)=C(O)[C@@](C)(O/C=C/[C@H](OC)[C@@H](C)[C@@H](OC(C)=O)[C@H](C)[C@H](O)[C@H](C)[C@@H](O)[C@@H](C)/C=C/C=C(/C)C(=O)N2)O5)CC1 | 31 strains | MIC50 | - | 0.05 µg/mL
NC[C@H]1O[C@H](O[C@H]2[C@H](O)[C@@H](O[C@H]3O[C@H](CO)[C@@H](O)[C@H](N)[C@H]3O)[C@H](N)C[C@@H]2N)[C@H](O)[C@@H](O)[C@@H]1O | N-919 (HIV-) | MIC | - | 0.5 µg/mL
NNC(=O)c1ccncc1 | 20 strains | MIC50 | - | 6.25 µg/mL
CO[C@H]1/C=C/O[C@@]2(C)Oc3c(C)c(O)c4c(=O)c(c5oc6cc(N7CCN(CC(C)C)CC7)cc(=O)c6nc5c4c3=C2O)NC(=O)/C(C)=C\C=C\[C@H](C)[C@H](O)[C@@H](C)[C@@H](O)[C@@H](C)[C@H](OC(C)=O)[C@@H]1C | 31 strains | MIC50 | - | 0.05 µg/mL
C[C@H]1COc2c(N3CCN(C)CC3)c(F)cc3c(=O)c(C(=O)O)cn1c23 | 20 strains | MIC90 | - | 25 µg/mL
C[C@@H]1CN(c2c(F)c(N)c3c(=O)c(C(=O)O)cn(C4CC4)c3c2F)C[C@H](C)N1 | - | MIC | - | 0.3 µg/mL
Cc1c(F)c(N2CCNC(C)C2)cc2c1c(=O)c(C(=O)O)cn2C1CC1 | 16 isolates | MIC90 | - | 12.5 µg/mL
CO[C@H]1/C=C/O[C@@]2(C)Oc3c(C)c(O)c4c(O)c(c5c(c4c3C2=O)NC2(CCN(CC(C)C)CC2)N=5)=NC(=O)/C(C)=C\C=C\[C@H](C)[C@H](O)[C@@H](C)[C@@H](O)[C@@H](C)[C@H](OC(C)=O)[C@@H]1C | 20 isolates | MIC50 | - | 0.5 µg/mL
CCn1cc(C(=O)O)c(=O)c2cc(F)c(N3CCN(C)CC3)cc21 | - | MIC | - | 13.6 µg/mL
C[C@H]1COc2c(N3CCN(C)CC3)c(F)cc3c(=O)c(C(=O)O)cn1c23 | 20 strains | MIC90 | - | 25 µg/mL
COc1c(N2C[C@@H]3CCCN[C@@H]3C2)c(F)cc2c(=O)c(C(=O)O)cn(C3CC3)c12 | - | MIC | - | 0.7 µg/mL
CC1COc2c(C3(N)CC3)c(F)cc3c(=O)c(C(=O)O)cn1c23 | 16 isolates | MIC90 | - | >100 µg/mL
Nc1nc(-n2cc(C(=O)O)c(=O)c3cc(F)c(N4CC(O)C4)c(Cl)c32)c(F)cc1F | 20 strains | MIC90 | - | 25 µg/mL
COc1c(N2CCNC(C)C2)c(F)cc2c(=O)c(C(=O)O)cn(C3CC3)c12 | 16 isolates | MIC90 | - | 25 µg/mL
CC[C@H]1OC(=O)[C@H](C)[C@@H](O[C@H]2C[C@@](C)(OC)[C@@H](O)[C@H](C)O2)[C@H](C)[C@@H](O[C@@H]2O[C@H](C)C[C@H](N(C)C)[C@H]2O)[C@](C)(OC)C[C@@H](C)C(=O)[C@H](C)[C@@H](O)[C@]1(C)O | 20 strains | MIC90 | - | 12.5 µg/mL

The last 2 rows once more:

compound | strain or isolate | read-out | tested at | value
COc1c(N2CCNC(C)C2)c(F)cc2c(=O)c(C(=O)O)cn(C3CC3)c12 | 16 isolates | MIC90 | - | 25 µg/mL
CC[C@H]1OC(=O)[C@H](C)[C@@H](O[C@H]2C[C@@](C)(OC)[C@@H](O)[C@H](C)O2)[C@H](C)[C@@H](O[C@@H]2O[C@H](C)C[C@H](N(C)C)[C@H]2O)[C@](C)(OC)C[C@@H](C)C(=O)[C@H](C)[C@@H](O)[C@]1(C)O | 20 strains | MIC90 | - | 12.5 µg/mL